US10059741B2 (priority 2015, dated 2018)
Several values for one entry are separate records, joined by “and”; a condition that tells them apart may be missing. Equal entries are not always repeated. Where two headings read alike, the source gives them in different places. Bridge positions count the residues as written; N and C are the ends. Square brackets hold non-standard residues; d marks the D form. Peptide text beside a SMILES is read from it. R8 = C=CCCCCCC[C@@](C)(N)C(=O)O; S5 = C=CCCC[C@](C)(N)C(=O)O; Nle = CCCC[C@H](N)C(=O)O; Aib = CC(C)(N)C(=O)O

Key:
Parameters in all cases: unit not given beside the values
[1] = system: H1N1 A/Solomon Island/03/2006; assay type: cell-based, influenza A virus
H7N9 A/Anhui/1/2013 = assay type: cell-based, influenza A virus
[2] = system: Influenza B Brisbane/60/2008; test: Cytopathic effect (CPE) inhibition in MDCK cells, neutral red; assay type: cell-based
[3] = system: Influenza A H1N1 Influenza A/California/7/2009; assay type: cell-based, influenza A virus
[4] = system: influenza virus, various viral strains; test: Influenza antiviral evaluation assay (CPE, neutral red dye uptake) in MDCK cells against various viral strains (Tables 8, 9); assay type: cell-based
[5] = system: Influenza A H3N2 Influenza A/Brisbane/10/2007; assay type: cell-based, influenza A virus
H5N1 A/Duck/MN/1525/81 = assay type: cell-based, influenza A virus
[6] = system: Influenza B/Brisbane/60/2008; assay type: cell-based
[7] = system: Influenza B Florida/04/2006; test: Cytopathic effect (CPE) inhibition in MDCK cells, neutral red; assay type: cell-based
[8] = system: influenza virus, various viral strains; assay type: cell-based
[9] = SI50=CC50/EC50, H1N1 A/Solomon Is./3/2006-M, Neutral Red

SMILES	SI50 [1, 9]	SI50 (H7N9 A/Anhui/1/2013)	SI50 [2]	SI50 [3]	SI90 [3]	SI50 [5]	SI90 [5]	SI50 [6]	SI90 [6]	SI50 [7]	also measured
CCCC[C@H](NC(C)=O)C(=O)N[C@@H](CC(=O)O)C(=O)N[C@H](C(=O)N[C@@H](CC(N)=O)C(=O)N[C@@]1(C)CCCC=CCCC[C@@](C)(C(=O)N[C@@H](CC(C)C)C(=O)N[C@@H](C)C(=O)N[C@H](C(=O)N[C@@H](CCC(N)=O)C(=O)NC(C)(C)C(=O)N[C@@H](C)C(=O)N[C@@H](C)C(=O)N[C@@H](C)C(N)=O)C(C)C)NC(=O)[C@H](CC(C)C)NC(=O)[C@H](CC(C)C)NC(=O)[C@H]([C@@H](C)O)NC1=O)C(C)C [SP-21] (Ac-[Nle]DVN[S5]TLL[S5]LAVQ[Aib]AAA-NH2; staple 5-9)	>19	>2.9									
CCCC[C@H](NC(C)=O)C(=O)N[C@@H](CC(=O)O)C(=O)N[C@H](C(=O)N[C@@H](CC(N)=O)C(=O)N[C@@]1(C)CCCC=CCCC[C@@](C)(C(=O)N[C@@H](CC(C)C)C(=O)N[C@@H](C)C(=O)N[C@H](C(=O)N[C@@H](CCC(N)=O)C(=O)N[C@@H](C)C(=O)N[C@@H](C)C(=O)NC(C)(C)C(=O)N[C@@H](C)C(N)=O)C(C)C)NC(=O)[C@H](CC(C)C)NC(=O)[C@H](CC(C)C)NC(=O)[C@H]([C@@H](C)O)NC1=O)C(C)C [SP-22] (Ac-[Nle]DVN[S5]TLL[S5]LAVQAA[Aib]A-NH2; staple 5-9)		>3.8									SI50 [1]: >3.4
NC(=O)c1ncn([C@@H]2O[C@H](CO)[C@@H](O)[C@H]2O)n1 [Ribavirin, reference compound]			>57	>15	>6	>36	>8	>2	1	>67	SI50 [4]: >33 and >34 and >36; SI50 (H5N1 A/Duck/MN/1525/81): >33 and >57
CCCC[C@H](NC(C)=O)C(=O)N[C@@H](CC(=O)O)C(=O)N[C@H](C(=O)N[C@@H](CC(N)=O)C(=O)N[C@@]1(C)CCCC=CCCC[C@@](C)(C(=O)N[C@@H](CC(C)C)C(=O)N[C@@H](C)C(=O)N[C@H](C(=O)NC(C)(C)C(=O)N[C@@H](C)C(=O)N[C@@H](CCC(N)=O)C(N)=O)C(C)C)NC(=O)[C@H](CC(C)C)NC(=O)[C@H](CC(C)C)NC(=O)[C@H]([C@@H](C)O)NC1=O)C(C)C [SP-6] (Ac-[Nle]DVN[S5]TLL[S5]LAV[Aib]AQ-NH2; staple 5-9)		0	>14	1	1	1	1	1	1	5.4	SI50 [8]: 1; SI90 [8]: 1 and >1.5
CCCC[C@H](NC(C)=O)C(=O)N[C@@H](CC(=O)O)C(=O)N[C@H](C(=O)N[C@@H](CC(N)=O)C(=O)N[C@@]1(C)CCCC=CCCC[C@@](C)(C(=O)N[C@@H](CC(C)C)C(=O)N[C@@H](CCCCN)C(=O)N[C@H](C(=O)NC(C)(C)C(=O)N[C@@H](C)C(=O)N[C@@H](CCC(N)=O)C(N)=O)C(C)C)NC(=O)[C@H](CC(C)C)NC(=O)[C@H](CC(C)C)NC(=O)[C@H]([C@@H](C)O)NC1=O)C(C)C [AP1, Ac-NleDVN$TLL$LKVAibAQ-NH2] (Ac-[Nle]DVN[S5]TLL[S5]LKV[Aib]AQ-NH2; staple 5-9)		0	>14	1	1	1	1	1	1	7.8	SI50 [1]: >33 and >56; SI90 [8]: 1; SI50 (H5N1 A/Duck/MN/1525/81): >16
CCCC[C@H](NC(C)=O)C(=O)N[C@@H](CC(=O)O)C(=O)N[C@H](C(=O)N[C@@H](CC(N)=O)C(=O)N[C@]1(C)CCCCCCC=CCCC[C@@](C)(C(=O)N[C@@H](C)C(=O)N[C@@H](C)C(=O)N[C@@H](C)C(=O)N[C@@H](C)C(=O)N[C@@H](C)C(N)=O)NC(=O)[C@H](C)NC(=O)[C@H](CC(C)C)NC(=O)[C@H](Cc2ccccc2)NC(=O)[C@H](CC(C)C)NC(=O)[C@H](CC(C)C)NC(=O)[C@H]([C@@H](C)O)NC1=O)C(C)C [SP-25] (Ac-[Nle]DVN[R8]TLLFLA[S5]AAAAA-NH2; staple 5-12)	>15	>1.5									
CCCC[C@H](NC(C)=O)C(=O)N[C@@H](CC(=O)O)C(=O)N[C@H](C(=O)N[C@@H](CC(N)=O)C(=O)N[C@]1(C)CCCCCCC=CCCC[C@@](C)(C(=O)N[C@@H](C)C(=O)N[C@@H](C)C(=O)N[C@@H](CCC(N)=O)C(N)=O)NC(=O)[C@H](C)NC(=O)[C@H](CC(C)C)NC(=O)[C@H](Cc2ccccc2)NC(=O)[C@H](CC(C)C)NC(=O)[C@H](CC(C)C)NC(=O)[C@H]([C@@H](C)O)NC1=O)C(C)C [SP-18] (Ac-[Nle]DVN[R8]TLLFLA[S5]AAQ-NH2; staple 5-12)	>3.4	0									SI90 ([8]; Influenza A H1N1 California/07/2009, VYR/Neutral Red): >16; SI90 ([8]; Influenza A H3N2 Perth/16/2009, VYR/Neutral Red): 0
CCCC[C@H](NC(C)=O)C(=O)N[C@@H](CC(=O)O)C(=O)N[C@H](C(=O)N[C@@H](CC(N)=O)C(=O)N[C@]1(C)CCCCCCC=CCCC[C@@](C)(C(=O)N[C@@H](CCC(N)=O)C(=O)N[C@@H](C)C(=O)N[C@@H](C)C(=O)N[C@@H](C)C(=O)N[C@@H](C)C(N)=O)NC(=O)[C@H](C)NC(=O)[C@H](CC(C)C)NC(=O)[C@H](Cc2ccccc2)NC(=O)[C@H](CC(C)C)NC(=O)[C@H](CC(C)C)NC(=O)[C@H]([C@@H](C)O)NC1=O)C(C)C [SP-27] (Ac-[Nle]DVN[R8]TLLFLA[S5]QAAAA-NH2; staple 5-12)	>1.3	>5.2									
